Measured values: article PMC10870819
pKd: −log10 of the molar value. Read-outs that look alike come from different tables or passages of the source.

Key:
[1] = molecular target: SARS-CoV-2 PT RBD (residues 319-541) (SARS-CoV-2) (UniProt P0DTC2); assay: SPR
[2] = molecular target: SARS-CoV-2 PT RBD (residues 319-541) (SARS-CoV-2) (UniProt P0DTC2); assay: SPR; remark: listed apart in the source

Row | Substance | pKd [1] | pKd [2]
1 | hare ACE2 (residues 1-615) | 6.77 | 
2 | rabbit ACE2 (residues 1-615), 293F-expressed (from UniProt G1TEF4) | 6.79 | 6.81
